ChEMBL document CHEMBL1268855 (J Nat Prod, 2010)

Experiments:
Neuraminidase [1] = target: T1, Neuraminidase (Influenza A virus, UniProt B4URF0); test: Inhibition of Influenza A virus (A/Sw/Kor/CAH1/04 (H1N1) KCTC 11165BP neuraminidase after 30 mins by spectrofluorimetric analysis
Neuraminidase [2] = target: T1, Neuraminidase; test: Inhibition of Influenza A virus (A/chicken/Korea/01310/2001 (H9N2)) neuraminidase after 30 mins by spectrofluorimetric analysis

Compound: COc1cc(O)c(C)c(O)c1C(=O)/C=C/c1ccccc1
- IC50 (Neuraminidase [1]): 85.7 µM
- IC50 (Neuraminidase [2]): 66.5 µM

Compound: COc1c(C)c(O)c(C)c(O)c1C(=O)/C=C/c1ccccc1O
- IC50 (Neuraminidase [1]): 28.1 µM
- IC50 (Neuraminidase [2]): 23.1 µM

Compound: COc1c(C)c(O)c(C)c(O)c1C(=O)/C=C/c1ccc(O)cc1
- IC50 (Neuraminidase [1]): 20.4 µM
- IC50 (Neuraminidase [2]): 18.6 µM

Compound: COc1c(C)c(O)c(C)c(O)c1C(=O)/C=C/c1ccccc1
- IC50 (Neuraminidase [1]): 32.5 µM
- IC50 (Neuraminidase [2]): 21.7 µM
